# Measured values as given in US20110186731A1, “LCMS TECHNOLOGY AND ITS USES” (priority 2008, published 2011).
# The amount applied is not stated for every result.
# Tests used:
# HLA-DR2 = experiment: Semiquantification of B. pertussis-derived HLA-DR2 epitopes after processing of whole bacterial cells by MDDC (approach D); format: cell-based, human; conditions: HLA-DR2 homozygous MDDC pulsed with whole cell B. pertussis
# HLA-DR = experiment: Semiquantification of Neisseria meningitidis OMV-derived HLA-DR epitopes on pulsed MDDC (approach F); format: cell-based, human
# [1] = non-PorA derived epitopes, OMV pulsed MDDC
# [2] = PorA-derived epitopes, HLA-DR1 or HLA-DR2 MDDC pulsed with P1.7-2.4 or P1.5-2.10 OMV
Substance,Abundance (copies/cell) (HLA-DR; [1]),Abundance (copies/cell) (HLA-DR; [2]),other results
AAFIALYPNSQLAPT (listed as Bordetella pertussis) [SEQ ID NO: 59],,,Abundance (copies/cell) (HLA-DR2): 175 copies/cell
AANLLEPLPASTINET (listed as Neisseria meningitidis) [SEQ ID NO: 111],30 copies/cell,,
ADRYIFAPAARGYRK (listed as Neisseria meningitidis) [SEQ ID NO: 134],240 copies/cell,,
AGEFGTLRAGRVA (listed as Neisseria meningitidis) [SEQ ID NO: 86],,350 copies/cell,
AGEFGTLRAGRVAN (listed as Neisseria meningitidis) [SEQ ID NO: 85],,"2,500 copies/cell",
AGEFGTLRAGRVANQ (listed as Neisseria meningitidis) [SEQ ID NO: 84],,"300-8,250 copies/cell",
ATASYRFGNAVPRIS (listed as Neisseria meningitidis) [SEQ ID NO: 100],,160 copies/cell,
DDKLAFAKETGADLVVN (listed as Neisseria meningitidis) [SEQ ID NO: 132],70 copies/cell,,
DGSRSPYYVQADLAYAAERITHD (listed as Neisseria meningitidis) [SEQ ID NO: 129],70 copies/cell,,
DKKVFTDARAVSTRQD (listed as Neisseria meningitidis) [SEQ ID NO: 133],70 copies/cell,,
DPGALVTYSGAAVLK (listed as Neisseria meningitidis) [SEQ ID NO: 112],80 copies/cell,,
DVSLYGEIKAGVEGRNIQ (listed as Neisseria meningitidis) [SEQ ID NO: 74],,"2,800-16,890 copies/cell",
DVSLYGEIKAGVEGRNIQLQ (listed as Neisseria meningitidis) [SEQ ID NO: 73],,"1,700-7,420 copies/cell",
DVSLYGEIKAGVEGRNYQ (listed as Neisseria meningitidis) [SEQ ID NO: 76],,"50-1,440 copies/cell",
DVSLYGEIKAGVEGRNYQLQ (listed as Neisseria meningitidis) [SEQ ID NO: 75],,30 copies/cell,
EGASGFYVQADAAHAKAS (listed as Neisseria meningitidis) [SEQ ID NO: 115],350 copies/cell,,
EGASGFYVQADAAHAKASSS (listed as Neisseria meningitidis) [SEQ ID NO: 114],80 copies/cell,,
ENKRHYIGGILERTQQT (listed as Neisseria meningitidis) [SEQ ID NO: 127],260 copies/cell,,
FGTLRAGRVANQ (listed as Neisseria meningitidis) [SEQ ID NO: 91],,75 copies/cell,
GEFGTLRAGRVA (listed as Neisseria meningitidis) [SEQ ID NO: 90],,350 copies/cell,
GEFGTLRAGRVAN (listed as Neisseria meningitidis) [SEQ ID NO: 89],,"1,000 copies/cell",
GEFGTLRAGRVANQ (listed as Neisseria meningitidis) [SEQ ID NO: 88],,"100-3,600 copies/cell",

Substance,Abundance (copies/cell) (HLA-DR; [1]),Abundance (copies/cell) (HLA-DR; [2]),other results
GEFGTLRAGRVANQF (listed as Neisseria meningitidis) [SEQ ID NO: 87],,750 copies/cell,
GGAEYNLALGQRRA (listed as Bordetella pertussis) [SEQ ID NO: 63],,,Abundance (copies/cell) (HLA-DR2): 10 copies/cell
GGAEYNLALGQRRADA (listed as Bordetella pertussis) [SEQ ID NO: 62],,,Abundance (copies/cell) (HLA-DR2): 350 copies/cell
GIGNYTQINAASVG (listed as Neisseria meningitidis) [SEQ ID NO: 105],,80-150 copies/cell,
GIGNYTQINAASVGLR (listed as Neisseria meningitidis) [SEQ ID NO: 104],,"200-1,500 copies/cell",
GKPGSDVYYAGLNYKNGGFAGNYAFKYARHAN (listed as Neisseria meningitidis) [SEQ ID NO: 98],,580 copies/cell,
GKPGSDVYYAGLNYKNGGFAGNYAFKYARHANV (listed as Neisseria meningitidis) [SEQ ID NO: 97],,920 copies/cell,
GKPGSDVYYAGLNYKNGGFAGNYAFKYARHANVG (listed as Neisseria meningitidis) [SEQ ID NO: 96],,"2,100 copies/cell",
HDHIIVTLKNHTLPT (listed as Neisseria meningitidis) [SEQ ID NO: 131],330 copies/cell,,
IALYPNSQLAPT (listed as Bordetella pertussis) [SEQ ID NO: 60],,,Abundance (copies/cell) (HLA-DR2): 25 copies/cell
IGNYTQINAASVG (listed as Neisseria meningitidis) [SEQ ID NO: 108],,"80-2,000 copies/cell",
IGNYTQINAASVGL (listed as Neisseria meningitidis) [SEQ ID NO: 107],,30-800 copies/cell,
IGNYTQINAASVGLR (listed as Neisseria meningitidis) [SEQ ID NO: 106],,"300-3,500 copies/cell",
IKNHGYELGASYRTGGLTAKVGVSHSKPRF (listed as Neisseria meningitidis) [SEQ ID NO: 120],"2,320 copies/cell",,
IKNHGYELGASYRTGGLTAKVGVSHSKPRFY (listed as Neisseria meningitidis) [SEQ ID NO: 119],"6,290 copies/cell",,
INNYYWHAFAREKGVQ (listed as Neisseria meningitidis) [SEQ ID NO: 113],150 copies/cell,,
IRTKISDFGSFIGFK (listed as Neisseria meningitidis) [SEQ ID NO: 78],,40 copies/cell,
IRTKISDFGSFIGFKG (listed as Neisseria meningitidis) [SEQ ID NO: 77],,"580-1,000 copies/cell",
KAFYQRQLAVAVKR (listed as Neisseria meningitidis) [SEQ ID NO: 124],790 copies/cell,,
KAFYQRQLAVAVKRA (listed as Neisseria meningitidis) [SEQ ID NO: 123],70 copies/cell,,
KPGSDVYYAGLNYKNGGFAGNYAFKYARHAN (listed as Neisseria meningitidis) [SEQ ID NO: 99],,520 copies/cell,
KRHDDMSVSVRYDSPEFSGFSGSVQFVPAQNSK (listed as Neisseria meningitidis) [SEQ ID NO: 92],,110 copies/cell,

Substance,Abundance (copies/cell) (HLA-DR; [1]),Abundance (copies/cell) (HLA-DR; [2]),other results
LAGEFGTLRAGRVAN (listed as Neisseria meningitidis) [SEQ ID NO: 83],,300 copies/cell,
LAGEFGTLRAGRVANQ (listed as Neisseria meningitidis) [SEQ ID NO: 82],,"750-3,500 copies/cell",
LAGEFGTLRAGRVANQF (listed as Neisseria meningitidis) [SEQ ID NO: 81],,75 copies/cell,
LAGEFGTLRAGRVANQFD (listed as Neisseria meningitidis) [SEQ ID NO: 80],,25 copies/cell,
LPGVGRDVRLGVNYKF (listed as Neisseria meningitidis) [SEQ ID NO: 121],"9,610 copies/cell",,
MAQYDRLGLTRSNTSC (listed as Neisseria meningitidis) [SEQ ID NO: 130],50 copies/cell,,
NYTQINAASVGLRHKF (listed as Neisseria meningitidis) [SEQ ID NO: 109],,"1,070-1,850 copies/cell",
PRVFGSVSRGDDTENSDIDLLVDAKTGTTLLDLG (listed as Neisseria meningitidis) [SEQ ID NO: 128],550 copies/cell,,
RHDDMoxSVSVRYD (RHDDMSVSVRYD; oxidized methionine; (5)..(5) oxidized methionine; listed as Neisseria meningitidis) [SEQ ID NO: 93],,170 copies/cell,
RNTGIGNYTQINAAS (listed as Neisseria meningitidis) [SEQ ID NO: 103],,30 copies/cell,
RNTGIGNYTQINAASVG (listed as Neisseria meningitidis) [SEQ ID NO: 102],,20-60 copies/cell,
RSSYAAEGAALSAQ (listed as Neisseria meningitidis) [SEQ ID NO: 126],30 copies/cell,,
SDSQILYHQGRFIVDPA (listed as Neisseria meningitidis) [SEQ ID NO: 118],950 copies/cell,,
SPDFSGFSGSVQFVPIQNSK (listed as Neisseria meningitidis) [SEQ ID NO: 95],,50 copies/cell,
SPEFSGFSGSVQFVPAQNSK (listed as Neisseria meningitidis) [SEQ ID NO: 94],,970 copies/cell,
TKISDFGSFIGFKG (listed as Neisseria meningitidis) [SEQ ID NO: 79],,60 copies/cell,
TSYDQIIAGVDYDFSKRTSAIVSGAWLKRNTG (listed as Neisseria meningitidis) [SEQ ID NO: 101],,"1,800 copies/cell",
VGRDVRLGVNYKF (listed as Neisseria meningitidis) [SEQ ID NO: 122],">2,000 copies/cell",,
YRKQYMIERNNLLPT (listed as Neisseria meningitidis) [SEQ ID NO: 125],370 copies/cell,,
YTQINAASVGLRHKF (listed as Neisseria meningitidis) [SEQ ID NO: 110],,"3,500-13,000 copies/cell",
YVQADAAHAKA (listed as Neisseria meningitidis) [SEQ ID NO: 117],380 copies/cell,,
YVQADAAHAKAS (listed as Neisseria meningitidis) [SEQ ID NO: 116],380 copies/cell,,
